# Source: patent publication US20060165717A1 (priority 2005, published 2006)
# Tested on: Balb/c mice
# Assay: Immunization of mice with recombinant Helicobacter pylori urease vaccine compositions; urease-specific IgG1 and IgG2a by ELISA
# Conditions: 10 μg urease + 200 μg adjuvant
# [1] = Exp. 1, newborn (1-week-old) Balb/c mice, 2 subcutaneous injections D0, D21
# [2] = Exp. 2, newborn (1-week-old) Balb/c mice, 2 subcutaneous injections D0, D21
# [3] = Exp. 3, newborn (1-week-old) Balb/c mice, 3 subcutaneous injections D0, D21, D36
# [4] = Exp. 4, newborn (1-week-old) Balb/c mice, 3 subcutaneous injections D0, D21, D36
substance,measurement,setting,value
"3β-[N-(N′,N′-dimethyl-aminoethane)carbamoyl]cholesterol",IgG1 After 1st booster,[1],4.89 log10 of the ELISA titers
same,IgG1 After 1st inj.,[1],3.74 log10 of the ELISA titers
same,IgG2a After 1st booster,[1],2.41 log10 of the ELISA titers
same,IgG2a After 1st inj.,[1],2.18 log10 of the ELISA titers
same,IgG1 After 1st booster,[2],4.50 log10 of the ELISA titers
same,IgG1 After 1st inj.,[2],3.07 log10 of the ELISA titers
same,IgG2a After 1st booster,[2],2.69 log10 of the ELISA titers
same,IgG2a After 1st inj.,[2],1.30 log10 of the ELISA titers
same,IgG1 After 1st booster,[3],4.36 log10 of the ELISA titers
same,IgG1 After 1st inj.,[3],3.16 log10 of the ELISA titers
same,IgG1 After 2nd booster,[3],4.73 log10 of the ELISA titers
same,IgG2a After 1st booster,[3],2.78 log10 of the ELISA titers
same,IgG2a After 1st inj.,[3],2.70 log10 of the ELISA titers
same,IgG2a After 2nd booster,[3],3.55 log10 of the ELISA titers
same,IgG1 After 1st inj.,[4],3.22 log10 of the ELISA titers
same,IgG1 After 2nd booster,[4],4.64 log10 of the ELISA titers
same,IgG2a After 1st inj.,[4],1.79 log10 of the ELISA titers
same,IgG2a After 2nd booster,[4],3.32 log10 of the ELISA titers
same,"antibody production compared with aluminum oxyhydroxide, in words",adult Balb/c mice,as good an adjuvant as aluminum oxyhydroxide
same,"amount of urease-specific antibodies induced, compared with aluminum oxyhydroxide, in words",newborn (1-week-old) Balb/c mice,greater amount of antibodies
